PubChem BioAssay AID504761 – Drosophila RNAi Screening Center – 2011
Screen: 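Fly genes whose silencing reduces dengue virus type 2 infection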 (primary screen). Cells: D.Mel-2 cells from Drosophila. Knock-down reagent: long dsRNA against Drosophila genes. Conditions: infection with dengue virus type 2; dose and infection time not stated. Detection: 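Per well on two replicate plates, imaging gave the percent of cells positive for viral envelope protein, ranked by infection, and a nuclear count of cells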. Scale: infection score: higher = more virus-infected cells; cell count: higher = more cells in the well. Hit rule: 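Low infection ranks in the two replicates (chance level up to 0.065) followed by a retest with a 1.5-fold or larger significant decrease, p below 0.05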. Meaning of the calls: active = confirmed: knock-down lowers infection; inactive = not picked or not confirmed.
In all, the deposit lists about 22,000 reagents; shown is a random part of those that have a named target and a result. Over the whole deposit, 116 (0.52%) got an active call. 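Calls depend on retest data that are not deposited; infection was ranked per plate without normalising between plates; the unit of the infection score is not given.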 Raw values are not corrected between plates. The record does not give: the amount of reagent, the time to read-out.

"infection score, replicate 1","infection score, replicate 2","cell count, replicate 1","cell count, replicate 2",Outcome,gene,DRSC id
5.06,15,6404,5706,inactive,kdn,DRSC18328
3.69,5.58,6238,6115,inactive,lncRNA:CR31044,DRSC22451
1.68,5.82,6565,6649,inactive,lncRNA:CR31044,DRSC25989
2.17,0.78,5296,5355,inactive,Uba2,DRSC11311
18.6,19.1,6009,5688,inactive,Act57B,DRSC04042
3.66,8.12,6482,6007,inactive,CG12507,DRSC19463
20.1,18.8,7041,6084,inactive,vimar,DRSC05026
11.6,17.2,6498,5384,inactive,Mtpbeta,DRSC04663
5.71,11.3,5551,5764,inactive,Gnf1,DRSC12351
1.54,1.4,6355,6409,inactive,Gnf1,DRSC26682
,3.18,342,5748,inactive,Rab1,DRSC16808
3.07,16.7,5901,5546,inactive,Rab1,DRSC29851
1.87,4.38,5984,5956,inactive,fz4,DRSC18780
19.8,12,5418,5964,inactive,CG3397,DRSC15487
8.21,1.47,6166,6390,inactive,CG7912,DRSC16343
,4.65,371,6748,inactive,yem,DRSC14865
1.92,2.58,884,6539,inactive,yem,DRSC17097
26.4,7.76,4229,5501,inactive,CG6931,DRSC10750
10.3,9.24,6161,5854,inactive,Tre1,DRSC18726
7.11,8.79,5713,1730,inactive,Tre1,DRSC28244
6.13,7.11,6478,6058,inactive,SMSr,DRSC10998
3.88,3.49,6107,5708,inactive,SMSr,DRSC10999
11.4,6.98,6447,6447,inactive,Rpn13,DRSC06379
7.09,0.64,4897,469,inactive,Jon99Fii,DRSC15430
17.5,23.4,4855,4889,inactive,CG4338,DRSC15564
5.95,4.37,6449,6368,inactive,Gr59b,DRSC04179
0.82,2.79,6726,6870,inactive,vers,DRSC23232

Reformatted: entries from further up
infection score, replicate 1	infection score, replicate 2	cell count, replicate 1	cell count, replicate 2	Outcome	gene	DRSC id
3.07	16.7	5901	5546	inactive	Rab1	DRSC29851
1.87	4.38	5984	5956	inactive	fz4	DRSC18780
19.8	12	5418	5964	inactive	CG3397	DRSC15487
8.21	1.47	6166	6390	inactive	CG7912	DRSC16343
	4.65	371	6748	inactive	yem	DRSC14865

Continued.
"infection score, replicate 1","infection score, replicate 2","cell count, replicate 1","cell count, replicate 2",Outcome,gene,DRSC id
24,8.58,4755,1516,inactive,PIG-A,DRSC06982
9.05,15.7,6174,6070,inactive,Coq2,DRSC16516
4.37,14.3,5669,5380,inactive,Coq2,DRSC21366
16.9,,3424,373,inactive,Coq2,DRSC29659
0.85,1.09,6123,6257,inactive,Prps,DRSC08994
3.11,1.81,6228,6701,inactive,Prps,DRSC10707
2.41,2.17,6306,6640,inactive,Prps,DRSC10708
22.6,21.1,6132,6536,inactive,Debcl,DRSC04965
14,10.5,6646,6366,inactive,Debcl,DRSC30010
1.8,1.48,611,540,inactive,RpL27,DRSC15638
3.61,3.51,4235,5066,inactive,RpL27,DRSC25890
0.97,2.79,6083,6820,inactive,CG15282,DRSC23090
15.9,12.3,3889,3859,inactive,CG15282,DRSC29233
1.58,1.74,5516,5862,inactive,CG18628,DRSC10328
2.05,0.92,6094,6205,inactive,ProtB,DRSC03373
7.19,6.98,6889,6764,inactive,ProtB,DRSC27427
8.39,16.2,5743,6085,inactive,CG14823,DRSC10194
10.3,22,6012,5682,inactive,alphaTry,DRSC07577
1.42,7.58,6704,7128,inactive,CG13455,DRSC10002
2.48,0.89,6365,6946,inactive,CG3036,DRSC00260
3.42,7.29,6108,6295,inactive,CG3036,DRSC00562
4.5,7.76,5959,6173,inactive,CG3036,DRSC24856
13.7,0.65,5672,6642,inactive,Muc4B,DRSC18062
9.75,0.75,5304,6672,inactive,Muc4B,DRSC18063
9.96,4.26,2660,5801,inactive,Muc4B,DRSC29148
11.2,1.18,6328,7270,inactive,CG10164,DRSC14197
8.03,8.95,6811,6383,inactive,Eglp1,DRSC04502
9.83,7.18,6833,7066,inactive,CG3999,DRSC15534
25.1,21.8,4358,5578,inactive,CG3999,DRSC29444
4.95,10.6,6317,6495,inactive,polybromo,DRSC14307
4.29,4.07,5738,3936,inactive,CG16710,DRSC15136
